A mixed list of measured activities; the numbers were collected in NIAID ChemDB.

Shared fields: whole-cell or culture tests

ECn: concentration that inhibits the pathogen or its effect by n%.

SMILES	strain or isolate	method	organism	tested at	cell line	mutations	measure	value
CO/N=C1\CN(c2nc3c(cc2F)c(=O)c(C(=O)O)cn3C2CC2)CC1CN	38 strains (ampicillin-susceptible)		Haemophilus influenzae				MIC90	0.008 µg/mL
C#CC[C@@H](C(=O)N[C@H](/C=C/C(=O)OCC)C[C@@H]1CCNC1=O)n1cccc(NC(=O)c2cc(C)on2)c1=O	Clinical isolate 119 (serotype 39)	cytopathic effect / XTT	Rhinovirus		H1-HELA		EC50	0.064 µM
N[C@@H]1CN(c2c(F)cc3c(=O)c(C(=O)O)cn([C@@H]4C[C@@H]4F)c3c2Cl)CC12CC2	38 strains (ampicillin-susceptible)		Haemophilus influenzae				MIC50	≤0.004 µg/mL
CC[C@H]1OC(=O)[C@H](C)[C@@H](O[C@H]2C[C@@](C)(OC)[C@@H](O)[C@H](C)O2)[C@H](C)[C@@H](O[C@@H]2O[C@H](C)C[C@H](N(C)C)[C@H]2O)[C@](C)(O)C[C@@H](C)/C(=N\OCOCCOC)[C@H](C)[C@@H](O)[C@]1(C)O		cytopathic effect	Encephalitozoon cuniculi	100 µg/mL	MRC-5 fibroblasts		inhibition	0%
Nc1nccc2c1ncn2[C@@H]1C[C@H](CO)[C@@H](O)[C@H]1O		cytopathic effect	Vesicular stomatitis virus		VERO		EC50	7 µg/mL
CC(C)(CO)C(=O)SCCOP(=O)(NCc1ccccc1)OC[C@H]1O[C@@H](n2cnc3c(=O)[nH]c(N)nc32)[C@](C)(O)[C@@H]1O	GT1a	replicon	Hepatitis C virus		Replicon cells	Y93H	fold resistance	1.05
Nc1nc2c(ncn2CCOCP(=O)(O)O)c(=O)[nH]1	14798 (TYPE 3)	virus yield	Parainfluenza virus				EC90	7 µg/mL
CCOc1cc(Cc2cnc(N)nc2N)cc(OCC)c1-n1cccc1	Isolate 842		Mycobacterium ulcerans				MIC	0.5 µg/mL
CO[C@@H]1[C@H](OC(=O)NC(=O)CCl)CC[C@]2(CO2)[C@H]1[C@@]1(C)O[C@@H]1CC=C(C)C			Encephalitozoon intestinalis	0.00005 µg/mL	RK-13		inhibition	47.6%
CC(=O)N1CCN(c2ccc(OC[C@H]3CO[C@](Cn4ccnc4)(c4ccc(Cl)cc4Cl)O3)cc2)CC1	Isogenic isolate 16 CDR		Candida albicans				MIC	0.13 µg/mL
Nc1nc2c(ncn2COCOCP(=O)(O)O)c(=O)[nH]1	SF (TYPE 5)	virus yield	Parainfluenza virus				EC90	31 µg/mL
NC(=O)c1ncn([C@@H]2O[C@H](CO)[C@@H](O)[C@H]2O)n1	LONG	plaque count	Respiratory syncytial virus		HEP-2		EC50	10.5 µM
CCn1cc(C(=O)O)c(=O)c2cc(F)c(N3CCN(C)CC3)cc21		cytopathic effect	Encephalitozoon cuniculi	5 µg/mL	MRC-5 fibroblasts		inhibition	0%
COc1cc(Cc2cnc(N)nc2N)cc(OC)c1OC	ATCC 35840		Mycobacterium ulcerans				MBC	>32 µg/mL
C[C@H]1NCc2cc(-c3ccc4c(=O)c(C(=O)O)cn(C5CC5)c4c3OC(F)F)ccc21	25 strains (ofloxacin-resistant)		Staphylococcus aureus				MIC50	2 µg/mL
CO[C@H]1/C=C/O[C@@]2(C)Oc3c(C)c(O)c4c(O)c(c5c(c4c3C2=O)NC2(CCN(CC(C)C)CC2)N=5)=NC(=O)/C(C)=C\C=C\[C@H](C)[C@H](O)[C@@H](C)[C@@H](O)[C@@H](C)[C@H](OC(C)=O)[C@@H]1C		cytopathic effect	Encephalitozoon cuniculi	10 µg/mL	MRC-5 fibroblasts		inhibition	12%
C[C@H]1COc2c(N3CCN(C)CC3)c(F)cc3c(=O)c(C(=O)O)cn1c23	24 strains (ofloxacin-susceptible)		Staphylococcus aureus				MIC50	0.25 µg/mL
CN(C)[C@@H]1C(=O)C(C(N)=O)=C(O)[C@@]2(O)C(=O)C3=C(O)c4c(O)c(NC(=O)CN5CCOCC5)cc(F)c4C[C@H]3C[C@@H]12	101-29213	agar diffusion	Staphylococcus aureus				MIC	4 µg/mL
CCO/N=C/c1ccc(OCCC2CCN(c3ccc(C)nn3)CC2)cc1	FO2-3607 (sialoprotein receptor group 87)	neutral red	Rhinovirus		KB		EC50	3.342 µM
CCCCCCCCCC(=O)N[C@H]1[C@H](Oc2c3cc4cc2Oc2ccc(cc2Cl)[C@@H](O[C@@H]2O[C@H](CO)[C@@H](O)[C@H](O)[C@H]2NC(C)=O)[C@@H]2NC(=O)[C@H](NC(=O)[C@@H]4NC(=O)[C@H]4NC(=O)[C@@H](Cc5ccc(c(Cl)c5)O3)NC(=O)[C@H](N)c3ccc(O)c(c3)Oc3cc(O)cc4c3)c3ccc(O)c(c3)-c3c(O[C@H]4O[C@H](CO)[C@@H](O)[C@H](O)[C@@H]4O)cc(O)cc3[C@H](C(=O)O)NC2=O)O[C@H](CO)[C@@H](O)[C@@H]1O	25 strains (ofloxacin-resistant)		Staphylococcus aureus				MIC90	4 µg/mL
C[C@H]1CN(c2c(F)cc3c(=O)c(C(=O)O)cn(C4CC4)c3c2OC(F)F)CCN1	10 strains		Enterococcus faecium				MIC50	2 µg/mL
COc1c(N2CCNC(C)C2)c(F)cc2c(=O)c(C(=O)O)cn(C3CC3)c12	24 strains (ofloxacin-susceptible)		Staphylococcus aureus				MIC90	0.25 µg/mL
O=C(Nc1ncc([N+](=O)[O-])s1)c1ccccc1O			Encephalitozoon intestinalis	10 µg/mL	RK-13		inhibition	86.2%
NC(=O)c1ncn([C@@H]2O[C@H](CO)[C@@H](O)[C@H]2O)n1		virus yield	Measles virus		CV-1		EC50	2 µg/mL
CO[C@H]1/C=C/O[C@@]2(C)Oc3c(C)c(O)c4c(O)c(c(/C=N/N5CCN(C)CC5)c(O)c4c3C2=O)NC(=O)/C(C)=C\C=C\[C@H](C)[C@H](O)[C@@H](C)[C@@H](O)[C@@H](C)[C@H](OC(C)=O)[C@@H]1C	20 strains (methicillin-susceptible)		Staphylococcus aureus				MIC50	0.0039 µg/mL
CCc1nc(N)nc(N)c1-c1ccc(Cl)cc1		cytopathic effect	Encephalitozoon cuniculi	20 µg/mL	MRC-5 fibroblasts		inhibition	1%
CC1(C)[C@@H](O[C@H]2O[C@H](C(=O)O)[C@@H](O)[C@H](O)[C@H]2O[C@@H]2O[C@H](C(=O)O)[C@@H](O)[C@H](O)[C@H]2O)CC[C@]2(C)[C@H]3C(=O)C=C4[C@@H]5C[C@@](C)(C(=O)O)CC[C@]5(C)CC[C@@]4(C)[C@]3(C)CC[C@@H]12	TYPE 4 (YUNH)	virus yield	Dengue virus		VERO		EC90	416 µg/mL
COc1cc(C[C@H](C)[C@H](C)Cc2ccc(O)c(O)c2)ccc1O	CCC 123-2000	broth dilution	Candida kefyr				MIC50	15.6 µg/mL
Nc1ncnc2c1ncn2[C@H]1C=C[C@H](O)[C@@H]1O		virus yield	Measles virus		CV-1		EC50	>100 µg/mL
CC(C)=CCN1c2cc(Cl)cc3[nH]c(=S)n(c23)C[C@@H]1C			HIV-1		MT-4	RT-L74V K101E	EC95	0.4 µM
CN(C)c1cc(NC(=O)CNC(C)(C)C)c(O)c2c1C[C@H]1C[C@H]3[C@H](N(C)C)C(=O)C(C(N)=O)=C(O)[C@@]3(O)C(=O)C1=C2O		broth dilution	Mycobacterium bolletii				MIC	0.25 µg/mL
CCOC(=O)Nc1cc(NC(C)/C(=N/O)c2cccc([N+](=O)[O-])c2)c([N+](=O)[O-])c(N)n1			Encephalitozoon intestinalis	0.1 µg/mL	RK-13		inhibition	0%
CN[C@@H]1[C@H](O[C@H]2[C@H](O[C@H]3[C@H](O)[C@@H](O)[C@H](N=C(N)N)[C@@H](O)[C@@H]3N=C(N)N)O[C@@H](C)[C@]2(O)C=O)O[C@@H](CO)[C@H](O)[C@H]1O	ESBL-3894		Klebsiella pneumoniae				MIC	6.25 µg/mL
CC[C@H]1OC(=O)[C@H](C)[C@@H](O[C@H]2C[C@@](C)(OC)[C@@H](O)[C@H](C)O2)[C@H](C)[C@@H](O[C@@H]2O[C@H](C)C[C@H](N(C)C)[C@H]2O)[C@](C)(OC)C[C@@H](C)C(=O)[C@H](C)[C@@H](O)[C@]1(C)O	X7	broth dilution	Mycobacterium massiliense				MIC	0.125 µg/mL
CC(=O)Oc1ccccc1C(=O)Nc1ncc([N+](=O)[O-])s1			Vittaforma corneae	0.001 µg/mL	RK-13		inhibition	22.3%
C[C@@H]1CN(c2c(F)c(N)c3c(=O)c(C(=O)O)cn(C4CC4)c3c2F)C[C@H](C)N1		cytopathic effect	Encephalitozoon cuniculi	50 µg/mL	MRC-5 fibroblasts		inhibition	100%
Nc1ccn(C[C@@H](CO)OCP(=O)(O)O)c(=O)n1	adenoid 6 (TYPE 2)	virus yield	Adenovirus				EC90	0.2 µg/mL
COc1cc(OC)cc(N(C)Cc2cnc3nc(N)nc(N)c3c2C)c1			Encephalitozoon intestinalis	0.1 µg/mL	RK-13		inhibition	53.6%
CO[C@H]1/C=C/O[C@@]2(C)Oc3c(C)c(O)c4c(=O)c(c5oc6cc(N7CCN(CC(C)C)CC7)cc(=O)c6nc5c4c3=C2O)NC(=O)/C(C)=C\C=C\[C@H](C)[C@H](O)[C@@H](C)[C@@H](O)[C@@H](C)[C@H](OC(C)=O)[C@@H]1C	Terajima		Staphylococcus aureus				MIC	0.0039 µg/mL

The last 5 rows once more:

SMILES	strain or isolate	method	organism	tested at	cell line	mutations	measure	value
CC(=O)Oc1ccccc1C(=O)Nc1ncc([N+](=O)[O-])s1			Vittaforma corneae	0.001 µg/mL	RK-13		inhibition	22.3%
C[C@@H]1CN(c2c(F)c(N)c3c(=O)c(C(=O)O)cn(C4CC4)c3c2F)C[C@H](C)N1		cytopathic effect	Encephalitozoon cuniculi	50 µg/mL	MRC-5 fibroblasts		inhibition	100%
Nc1ccn(C[C@@H](CO)OCP(=O)(O)O)c(=O)n1	adenoid 6 (TYPE 2)	virus yield	Adenovirus				EC90	0.2 µg/mL
COc1cc(OC)cc(N(C)Cc2cnc3nc(N)nc(N)c3c2C)c1			Encephalitozoon intestinalis	0.1 µg/mL	RK-13		inhibition	53.6%
CO[C@H]1/C=C/O[C@@]2(C)Oc3c(C)c(O)c4c(=O)c(c5oc6cc(N7CCN(CC(C)C)CC7)cc(=O)c6nc5c4c3=C2O)NC(=O)/C(C)=C\C=C\[C@H](C)[C@H](O)[C@@H](C)[C@@H](O)[C@@H](C)[C@H](OC(C)=O)[C@@H]1C	Terajima		Staphylococcus aureus				MIC	0.0039 µg/mL

Rows are shuffled and stem from different studies. Blank or dashed fields: not listed here. MIC50, MIC90 and the like: level of inhibition, or share of isolates inhibited. Percent inhibition refers to the dose given; in toxicity tests it is the harm to the cells. Fold resistance: result on the changed form divided by that on wild type.